Measured values: paper PMC8092326

Biological target: RBD-mimic2 peptide (SARS-CoV-2 spike RBD) (Severe acute respiratory syndrome coronavirus 2)
Assay: SPR

Which Kd does the source give for ACE2 (from UniProt Q9BYF1) here?
Its Kd is 0.347 µM.
